Laboratory results from article PMC7894572 (Chemmedchem, 2020).

Target: SARS‐CoV PL^pro (Severe acute respiratory syndrome coronavirus, UniProt P0C6X7)
Test: biochemical

`Cc1ccccc1C(=O)N[C@H](C)c1cccc2ccccc12` [Compound 2 a, 2‐Methyl‐N‐[(1R)‐naphth‐1‐ylethyl]benzamide, reference compound] was tested. Which IC50 did it give?
Its IC50 is 3.3 µM.
